Results of unrelated studies side by side (data: NIAID ChemDB).

Shared fields: tests in culture; organism: HIV-1; method: cytopathic effect / XTT; read-out: EC50

An empty or dashed field is not shown.

smiles	cell line	strain	mutations	setting	result
Cc1ccnc2c1NC(=O)c1cccnc1N2C1CC1	CEM + CEM-SS	NL4-3	RT-L100I	-	0.1 µM
O=C1N(Cc2ccc(CO)cc2)[C@H](COc2ccccc2)[C@H](O)[C@@H](O)[C@@H](COc2ccccc2)N1Cc1ccc(CO)cc1	MT-4	IIIB	PR-V82A	-	0.1 µM
C[C@H]1COc2c(N3CCN(C)CC3)c(F)cc3c(=O)c(C(=O)O)cn1c23	MT-4	IIIB	-	-	>50 µg/mL
C/C=C/CSc1cc(NC(=S)c2ccsc2C)ccc1Cl	CEM + CEM-SS	NL4-3 (RT K103N)	RT-K103N	-	0.8 µM
NC(=O)C(c1ccccc1)(c1ccccc1)C1CCCN(CCOc2ccccc2)C1	MT-2	NL4-3	-	-	5.4 µM
COc1cccc(C[C@H](NC(=O)c2cccc(O)c2C)[C@H](O)C(=O)N2CSC(C)(C)[C@H]2C(=O)NCc2c(C)cccc2C)c1	CEM	IIIB	-	50% human serum	0.009 µM
CCc1c(C(=O)c2cc(C)cc(C)c2)n(CC2CC=CC2)c(=O)[nH]c1=O	CEM + CEM-SS	NL4-3	RT-V108I	-	0.003 µM
Cc1occc1C(=S)Nc1ccc(Cl)c(/C=N/OC(C)(C)C)c1	CEM + CEM-SS	UC38-RS (RT-Y181C)	RT-Y181C	-	1.3 µM
Cc1cn([C@H]2C[C@H](N=[N+]=[N-])[C@@H](CO)O2)c(=O)[nH]c1=O	CEM + CEM-SS	-	-	-	0.007 µM
COc1ccc(C[C@H](NC(=O)c2cccc(O)c2C)[C@H](O)C(=O)N2CSC(C)(C)[C@H]2C(=O)NCc2c(C)cccc2C)cc1	CEM	IIIB	-	15% FBS	0.0076 µM
COC(OC)C(=O)[C@H]1[C@H](C(=O)OC[C@H]2O[C@@H](n3cc(C)c(=O)[nH]c3=O)C[C@@H]2N=[N+]=[N-])C[C@H]2[C@@H]3CCC4=CC(=O)C=C[C@]4(C)[C@H]3[C@@H](O)C[C@@]21C	CEM + CEM-SS	-	-	-	0.035 µM
Nc1nc2c(ncn2[C@H]2CO[C@@H](CO)O2)c(=O)[nH]1	PBMC	-	RT-K65R Q151M	-	30 µM
Cc1cn([C@H]2C[C@H](N=[N+]=[N-])[C@@H](CO)O2)c(=O)[nH]c1=O	CEM + CEM-SS	IIIB	-	-	1.82 µM
Cc1cn([C@H]2C=C[C@@H](CO)O2)c(=O)[nH]c1=O	MT-2	NL4-3 Recombinant	-	-	4.1 µM
Cn1cc(N)cc1C(=O)Nc1cc(C(=O)Nc2ccc3cc(S(=O)(=O)O)cc(S(=O)(=O)O)c3c2)n(C)c1	CEM + CEM-SS	G691-2	-	-	3.6 µM
CC(C)=CCN1Cc2cc(Cl)cc3[nH]c(=S)n(c23)C[C@@H]1C	CEM	IIIB	-	-	0.07 µM
Cc1ccnc2c1NC(=O)c1cccnc1N2C1CC1	CEM + CEM-SS	Thiazolobenzimidazole-resistant (RT V108I)	RT-V108I	-	0.3 µM
Cc1cn([C@H]2C[C@H](N=[N+]=[N-])[C@@H](CO)O2)c(=O)[nH]c1=O	MT-2	LAI	-	-	0.35 µM
Fc1cccc(F)c1[C@@H]1SCc2nc3ccccc3n21	CEM	IIIB	RT-V106N	-	≥34.7 µM
Nc1nc(NC2CC2)c2ncn([C@H]3C=C[C@@H](CO)C3)c2n1	MT-2	Site-directed mutant	RT-L74V	-	7.25 µM
Cc1cn([C@H]2C[C@H](N=[N+]=[N-])[C@@H](COC(=O)CN3CCN(c4cc5c(cc4F)c(=O)c(C(=O)O)cn5C4CC4)CC3)O2)c(=O)[nH]c1=O	CEM	-	-	-	1.87 µM
CCc1c(Sc2ccccn2)n(COCc2ccccc2)c(=O)[nH]c1=O	CEM + CEM-SS	4XAZT+Y181C (RT D67N K70R Y181C T215Y K219Q)	RT-D67N K70R Y181C T215Y K219Q	-	0.32 µM
Nc1nc(=O)n([C@@H]2CS[C@H](CO)O2)cc1F	MT-2	NL4-3 Recombinant	-	-	0.4 µM
Cc1ccccc1CNC(=O)[C@H]1N(C(=O)[C@@H](O)[C@H](Cc2ccccc2)NC(=O)c2cccc(O)c2C)CSC1(C)C	CEM	IIIB	-	50% human serum	0.052 µM
Nc1nc2c(ncn2[C@H]2CO[C@@H](CO)O2)c(=O)[nH]1	MT-2	Site-directed mutant	RT-K103N	-	1.98 µM
Cc1cccc(C)c1CNC(=O)[C@H]1N(C(=O)[C@@H](O)[C@H](Cc2ccc3c(c2)OCO3)NC(=O)c2cccc(O)c2C)CSC1(C)C	CEM	IIIB	-	15% FBS	0.003 µM
Cc1cn([C@@H]2O[C@H](CO[Si](C)(C)C(C)(C)C)C3(OS(=O)(=O)C=C3N)[C@H]2O[Si](C)(C)C(C)(C)C)c(=O)n(C)c1=O	CEM	IIIB	RT-V106N	-	3.5 µM
Cc1c(Sc2ccccc2)n(COCCO)c(=O)[nH]c1=O	CEM + CEM-SS	IIIB	RT-V108I	-	>325 µM
CCn1cc(C(=O)O)c(=O)c2cc(F)c(N3CCNCC3)cc21	MT-4	IIIB	-	-	>50 µg/mL
NC(=O)C(c1ccccc1)(c1ccccc1)[C@H]1CCCN(CCc2ccc(Cl)cc2)C1	MT-2	NL4-3	-	-	0.55 µM
Cc1ccccc1CNC(=O)[C@H]1N(C(=O)[C@@H](O)[C@H](Cc2ccc(OC(C)C)cc2)NC(=O)c2cccc(O)c2C)CSC1(C)C	CEM	IIIB	-	15% FBS	0.0079 µM
Cc1cn([C@H]2C[C@H](N=[N+]=[N-])[C@@H](CO)O2)c(=O)[nH]c1=O	MAC	BaL	-	-	0.03 µM
O=C(O)c1cc(O)cc(O)c1N=Nc1ccc(/C=C/c2ccc(N=Nc3c(O)cc(O)cc3C(=O)O)cc2S(=O)(=O)O)c(S(=O)(=O)O)c1	AA5	IIIB	-	-	3 µg/mL
Cc1cn([C@H]2C[C@H](N=[N+]=[N-])[C@@H](CO)O2)c(=O)[nH]c1=O	CEM	-	-	-	0.009 µM
NC(=O)C(c1ccccc1)(c1ccccc1)[C@H]1CCCN(CCc2ccc3c(c2)CCO3)C1	C8166	NL4-3	-	-	0.69 µM

ECn: concentration that inhibits the pathogen or its effect by n%. Lines come from different laboratories, so protocols vary.